Two substances from article PMC6287010 can be followed below.

The subject of this series is CCCCCCCC(=O)Oc1ccc([N+](=O)[O-])cc1. Nature of the series: purified protein. As to conditions: pH 8.0; 45.0 °C.

One may read the Km as the concentration of substrate that gives half-maximal velocity. A word on the Vmax: it is the rate approached at saturating substrate.

With rEst (Mycobacterium tuberculosis H37Rv), the Km is 67 ± 5 µM and the Vmax turned out to be 7000 µM/min.

“rRv1288 (Mycobacterium tuberculosis H37Rv)”: the Km was found to be 77 ± 7 µM and the Vmax was 11000 µM/min.
